Results deposited as PubChem BioAssay AID1259414 (Drosophila RNAi Screening Center, 2018)
In all, the deposit lists about 24,000 reagents; below is an unselected part of those with a known target gene and a result. In the full data, about 1,210 (5%) are marked active. 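Inactive calls also include excluded dsRNAs with several or no targets, genes unexpressed in JW18, and well A1, regardless of score.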 Unmarked entries are inactive. Reagents against one gene are numbered here. Names joined by + are all predicted targets of the reagent.

Test: 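Genome-wide screen for host control of endosymbiont load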 (primary screen)
Cell system: Drosophila JW18 cells infected with Wolbachia
Reagents: long dsRNA against Drosophila genes, 0.25 µg dsRNA per well of a 384-well plate
Time to read-out: 5 days
Challenge: cells persistently infected with Wolbachia before knock-down; no added drug
Detection: 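Imaged fluorescence in situ signal for Wolbachia 23S rRNA per DAPI-counted host cell, given as a robust z-score within each plate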
Direction: Wolbachia per cell robust z: higher = more Wolbachia per host cell than the plate typical
Call rule: 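Active if absolute robust z reaches 1.5 in two or more of three replicates, leaving out multi- or no-target dsRNAs, genes unexpressed in JW18 and A1 wells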

target gene	reagent no.	Wolbachia per cell robust z, rep 1	Wolbachia per cell robust z, rep 2	Wolbachia per cell robust z, rep 3
CG4854	1	0.857	0.414	0.891
CG4854	2	1.45	0.452	0.191
CG42788	1	-0.0262	-1.23	-0.994
CG42788	2	-0.743	-0.61	-0.711
CG42788	3	-1.38 (active)	-2.94	-1.73
CG42788	4	0.43	-1.05	-0.907
Rab32	1	-1.14	0.258	0.109
Rab32	2	1.02	1.21	0.0699
Rab32	3	-0.374	-0.366	-0.599
CG6168	1	-0.333	-0.806	-0.936
CG13893	1	-0.356	-0.492	0.803
RanBPM	1	-0.485	0.412	0.093
RanBPM	2	-0.308	-0.439	-0.242
CG31373	1	-0.279	0.166	0.104
Arglu1	1	-1.53	0.674	0.732
Arglu1	2	0.069	-0.276	-0.903
Idgf3	1	0.562	0.541	0.36
Idgf3	2	0.278	-0.547	0.552
Hus1-like	1	0.465	-2.29	0.0375
CG15021	1	0.876	0.345	0.641
CG15021	2	-2.94	0.78	0.747
Eb1	1	0.398	0.187	0.272
Eb1	2	0.27	0.55	-1.74
Ns2	1	-1.79	-1.37	0.411
Ns2	2	0.272	-0.0558	1.17
Adk3	1	-0.362	-1.17	0.375
Adk3	2	0.49	-0.711	0.288
Ir85a	1	1.05	0.305	0.426
Ir85a	2	0.343	-0.907	-0.733
Gem2	1	0.767	-0.789	-0.961
Lamtor4	1	-0.0102	-3.2	0.256
CG2875	1	-2.96 (active)	0.874	-4
CG17221	1	0.661	-1.52	0.595
CG17221	2	0.812	-0.00219	0.305
CG34021	1	-0.323	0.852	-1.08
nau	1	-6.19 (active)	-2.2	0.338
CG10053	1	0.695	0.446	-0.388
CG10053	2	0.28	1.41	-0.453
CG2887	1	0.828	-0.355	0.125
CG2887	2	1.2	0.701	0.602
CG11899	1	-0.723	-1.48	-0.155
CG4653	1	0.453	-2.16	0.906
CG4653	2	0.503	-1.11	1.36
CG4653	3	0.672	-0.678	-0.925
CG9044	1	0.117	-0.544	-11.4
spdi	1	0.627	-0.372	-0.831
spdi	2	0.727	0.463	0.531
RASSF8	1	0.709	1.35	-0.378
RASSF8	2	1.13	0.769	0.612
CG11060	1	-1.22	0.748	-5.18
CG7824	1	-3.31	0.856	1.2
CG14634	1	0.139	0.155	0.297
CG8838	1	0.46	-1.67	-0.197
CG8838	2	0.357	0.157	0.682
CG5909	1	0.513	-0.217	-3.27
CG5909	2	-0.565	-0.635	1.16
CG6508	1	1.37	0.167	0.161
Cyp4p1	1	0.395	-0.296	0.322
Cyp4p1	2	1.26	0.444	-0.0879
CG4115	1	1.11	0.0326	1.09
Ent3	1	-0.721	0.85	-0.707
Ent3	2	0.437	1.33	-0.327
Hsp68	1	-0.606 (active)	-2.1	-6.37
CG14860	1	0.141	-0.699	0.18
CG14860	2	0.418	-0.675	0.0648
CG1288	1	-0.196	0.38	-0.0567
CG1288	2	1.2	0.182	1.14
cin + CG42376	1	0.756	-0.00648	-0.244
cin + CG42376	2	-0.233	-1.27	0.0779

Looked up above.
Result for CG42788 #4 in “Wolbachia per cell robust z, rep 2”: -1.05
Entry of Ir85a #2 in “Wolbachia per cell robust z, rep 3”: -0.733
Under “Wolbachia per cell robust z, rep 2”, RanBPM #2 shows -0.439
Under “Wolbachia per cell robust z, rep 3”, CG14860 #2 shows 0.0648
Entry of CG7824 under “Wolbachia per cell robust z, rep 1”: -3.31
Result for Rab32 #2 under “Wolbachia per cell robust z, rep 2”: 1.21
